Legend:
Test in all cases: cell viability assay (MTS)
Assay type in all cases: cell-based, human
HeLa cells = conditions: agent titrated + 10 pM CD71mab-saporin, read-out: IC50 cell killing
MDA-MB-468 cells = conditions: MDA-MB-468; agent alone; listed as Cetuximab-Cys-(dendron(-L-SO1861)^4)^3,9
SK-BR-3 cells = system: SK-BR-3 cells

cetuximab-Cys-(dendron(-L-SO1861)^4)^3,9: Dendron(-L-SO1861)^4 conjugated to cetuximab via cysteine residues
IC50 (HeLa cells): > 100 nM | cell killing activity (MDA-MB-468 cells): could not be induced

trastuzumab-(Cys-S-SO1861)^4: stable-linked SO1861 conjugated to trastuzumab
IC50 cell killing (SK-BR-3 cells; SK-BR-3 (HER2++), agent titrated + fixed 50 pM trastuzumab-saporin): The same data were revealed

trastuzumab-(L-SO1861)^3,8: labile SO1861 conjugated to trastuzumab
IC50 cell killing (SK-BR-3 cells; SK-BR-3, agent alone): not observed

From patent publication US20220054643A1, “SAPONIN CONJUGATED TO EPITOPE-BINDING PROTEINS” (priority 2018, published 2022)
